Pooled drug test results. Numbers come from NIAID ChemDB, via PubChem.

All rows: whole-cell or culture tests; agent: Mycobacterium tuberculosis

Inhibition is in % at the dose shown (toxicity tests: loss of growth or viability). ECn: concentration that inhibits the pathogen or its effect by n%. Two numbers with a dash give a range or band. An empty or dashed field is not shown. MIC bound comes from a single tested concentration. Rows are shuffled and stem from different studies. A number after MIC or MFC names an inhibition level or a share of isolates.

SMILES	strain	changes	method	measure	tested at	result
O=C(Nc1cccc(C(F)(F)F)c1)NC12CCC3CC(CC1C3)C2	H37Rv	-	-	MIC	-	0.8 µg/mL
CCN(CC)Cc1c2c(O)c3c(O)c(C)c4c(c3c1O)C(=O)[C@@](C)(O/C=C/[C@H](OC)[C@@H](C)[C@@H](O)[C@H](C)[C@H](O)[C@H](C)[C@@H](O)[C@@H](C)/C=C/C=C(/C)C(=O)N2)O4	H37Rv	-	-	MIC	-	2 µg/mL
CCc1cn2c(nc1=O)O[C@@H]1[C@H](F)[C@H]2O[C@@H]1CO	H37Ra	-	resazurin	MIC25	-	100 µg/mL
Cc1cnc(CSc2nc(N)c3c4c(sc3n2)CC(C(C)(C)C)CC4)o1	H37Rv	-	MTT / visual reading	MIC	-	12.5 µg/mL
C(=C1/CNC/C(=C\c2ccco2)C1=Nc1ccccc1)/c1ccco1	H37Rv	-	agar / visual reading	MIC	-	6.25 µg/mL
NC(=O)c1cnccn1	H37Rv	-	BACTEC	MIC	-	32 µg/mL
CC(C)N(O)C(=O)C(=O)O	P4145	-	-	MIC	-	125 µM
N#Cc1c(/N=C/c2cc(Cl)cc(Cl)c2O)sc2c1CCC2	H37Rv	-	resazurin	MIC bound	-	>6.25 µg/mL
CCCN(CCC)/N=C/c1c2c(O)c3c(O)c(C)c4c(c3c1O)C(=O)[C@@](C)(O/C=C/[C@H](OC)[C@@H](C)[C@@H](OC(C)=O)[C@H](C)[C@H](O)[C@H](C)[C@@H](O)[C@@H](C)/C=C/C=C(/C)C(=O)N2)O4	H37Rv	-	-	MIC	-	0.05 µg/mL
S=c1[nH]nc2n1NC(c1ccccc1)=NN2	H37Rv	-	BACTEC	inhibition	12.5 µg/mL	0%
CC1=CC(=O)c2c(O)cccc2C1=O	H37Rv	-	-	MIC	-	<12.5 µg/mL
COc1ccc(C(C2=C(O)CC(C)OC2=O)C2=C(O)CC(C)OC2=O)cc1	H37Rv	-	BACTEC	inhibition	12.5 µg/mL	-14%
CCCCCCCCO[C@H]1O[C@H](CO[C@H]2O[C@H](CNS(=O)(=O)CC)[C@@H](O[Si](C)(C)C(C)(C)C)[C@@H]2O[Si](C)(C)C(C)(C)C)[C@@H](O[Si](C)(C)C(C)(C)C)[C@@H]1O[Si](C)(C)C(C)(C)C	H37Ra	-	-	MIC	-	>12.8 µg/mL
C=C(C)CC1(C)SC(=O)C(C)=C1O	H37Rv	-	-	MIC	-	>1000 µM
CC1=CC(=O)C(/C=C(\C)[N+](=O)[O-])=CC1=O	H37Rv	-	BACTEC	MIC bound	-	≤128 µg/mL
COc1cc(Cc2cnc(/N=C3\C(=O)N(CN4CCN(c5cc6c(cc5F)c(=O)c(C(=O)O)cn6C5CC5)CC4)c4ccc(Br)cc43)nc2N)cc(OC)c1OC	H37Rv	-	-	MIC	-	3.13 µg/mL
O=C(O)CCCCCCCCCCCCC1C=CCC1	H37Rv	-	GFP	MIC	-	9.82 µM
CC1(C)C(=O)NC(=O)C1(C)C	H37Rv	-	BACTEC	MIC bound	-	>12.5 µg/mL
NNC(=O)c1ccncc1	CF45	-	resazurin	MIC	-	>25 µg/mL
CO[C@H]1/C=C/O[C@@]2(C)Oc3c(C)c(O)c4c(O)c(c(/C=N/N5CCN(C)CC5)c(O)c4c3C2=O)NC(=O)/C(C)=C\C=C\[C@H](C)[C@H](O)[C@@H](C)[C@@H](O)[C@@H](C)[C@H](OC(C)=O)[C@@H]1C	T13704	-	-	MIC	-	6.2 µM
CCc1cn(C2OC(CO)C(Br)C2F)c(=O)[nH]c1=O	H37Ra	-	resazurin	MIC56	-	10 µg/mL
Cc1cc(NC(=O)c2ccc(N)cc2)ccc1N=Nc1ccc(N=Nc2cc(S(=O)(=O)[O-])cc3cc(S(=O)(=O)[O-])cc(O)c23)c2ccccc12.[Na+].[Na+]	H37Rv	-	BACTEC	inhibition	128 µg/mL	100%
CC(C)(C)C1CCc2c(sc3nc(SCC(=O)Nc4ccccc4)nc(N)c23)C1	H37Rv	-	MTT / visual reading	MIC	-	>200 µg/mL
CC(C)=C[C@@H]1C[C@H](C)[C@H]2CC[C@H](C)c3c2c1c(C)c1ncoc31	-	-	-	inhibition	12.5 µg/mL	97%
CCOC(=O)c1cc(C)nnc1C(=O)OCC	H37Rv	-	BACTEC	MIC bound	-	>12.5 µg/mL
O=C(Nc1cccc(OC(F)F)c1)NC12CCC3CC(CC1C3)C2	H37Rv	-	-	MIC	-	0.8 µg/mL
C[N+](C)(C)CCCN1c2ccccc2Sc2c1ccc1ccccc21	H37Rv	-	-	MIC	-	3.44 µg/mL
CO[C@H]1/C=C/O[C@@]2(C)Oc3c(C)c(O)c4c(O)c(c(/C=N/N5CCN(C)CC5)c(O)c4c3C2=O)NC(=O)/C(C)=C\C=C\[C@H](C)[C@H](O)[C@@H](C)[C@@H](O)[C@@H](C)[C@H](OC(C)=O)[C@@H]1C	CHUV80045776	katG mutant isoniazid resistant	resazurin / absorbance	MIC	-	0.001 µg/mL
CCCCCCOCCN1CCN(CCCN2c3ccccc3Sc3ccc(C(F)(F)F)cc32)CC1.Cl.Cl	H37Rv	-	BACTEC	inhibition	12.5 µg/mL	100%
Cc1cc(O)c2c(c1)C(=O)C(c1c(C)cc3c(c1O)C(=O)C=CC3=O)=CC2=O	Isoniazid/rifampicin-resistant	-	-	MIC	-	0.1 µg/mL
CO[C@H]1/C=C/O[C@@]2(C)Oc3c(C)c(O)c4c(O)c(c(/C=N/N5CCN(C)CC5)c(O)c4c3C2=O)NC(=O)/C(C)=C\C=C\[C@H](C)[C@H](O)[C@@H](C)[C@@H](O)[C@@H](C)[C@H](OC(C)=O)[C@@H]1C	H37Rv	-	-	EC50	-	0.02 µg/mL
NNC(=O)c1ccncc1	P4145	-	-	MIC	-	2.5 µM
CCc1cn(C2OC(CO)C(O)C2F)c(=O)[nH]c1=S	H37Ra	-	resazurin	MIC60	-	100 µg/mL
CCOC(=O)c1nnc(SC)[nH]c1=O	H37Rv	-	BACTEC	inhibition	12.5 µg/mL	0%
CC(C)(C)C1CCc2c(sc3nc(SCc4ccn[nH]4)nc(N)c23)C1	H37Rv	-	MTT / visual reading	MIC	-	100 µg/mL
Nc1c([N+](=O)[O-])ncn1[C@@H]1O[C@H](CO)[C@@H](O)[C@H]1O	H37Rv	-	resazurin	inhibition	6.25 µg/mL	-22%
COc1cc(NC(=O)NC23CCC4CC(CC2C4)C3)cc(C(F)(F)F)c1	H37Rv	-	-	MIC	-	0.9 µg/mL
Fc1ccc(N=C2/C(=C/c3ccco3)CNC/C2=C\c2ccco2)c(F)c1	H37Rv	-	agar / visual reading	MIC	-	0.78 µg/mL
COc1cc(Cc2cnc(/N=C3\C(=O)N(CN4CCN(c5c(F)cc6c(=O)c(C(=O)O)cn(C7CC7)c6c5OC)CC4C)c4ccc(Br)cc43)nc2N)cc(OC)c1OC	H37Rv	-	-	MIC	-	3.13 µg/mL
COc1ccc(NC(=S)NNC(=O)c2ccc(NC(=O)c3ccc(OC)cc3)cc2)cc1	H37Rv	-	-	inhibition	6.25 µg/mL	0%
CC1=C(O)C(C)(C(C)C)SC1=O	H37Rv	-	-	MIC	-	>1000 µM
O=C1/C(=C\N2CCN(c3ccccc3)CC2)Cc2c(Cl)cccc21	H37Rv	-	resazurin	inhibition	6.25 µg/mL	-24%
NC(=O)N=C1/C(=C/c2ccco2)CNC/C1=C\c1ccco1	H37Rv	-	agar / visual reading	MIC	-	12.5 µg/mL
Cc1ccc(S(=O)(=O)Oc2ccc3oc4c(CO)ccc(NCCN(C)C)c4c(=O)c3c2)cc1	CS-R	-	-	MIC	-	12.5 µg/mL
CCCCCCCCO[C@H]1O[C@H](CO[C@H]2O[C@H](CNC(=O)c3ccccc3)[C@@H](O[Si](C)(C)C(C)(C)C)[C@@H]2O[Si](C)(C)C(C)(C)C)[C@@H](O[Si](C)(C)C(C)(C)C)[C@@H]1O[Si](C)(C)C(C)(C)C	H37Ra	-	-	MIC	-	>12.8 µg/mL
COc1cccc(N=C2/C(=C/c3ccco3)CNC/C2=C\c2ccco2)c1OC	H37Rv	-	agar / visual reading	MIC	-	25 µg/mL
CCCCCCCCO[C@H]1O[C@H](CO[C@H]2O[C@H](CN=[N+]=[N-])[C@@H](O[Si](C)(C)C(C)(C)C)[C@@H]2O[Si](C)(C)C(C)(C)C)[C@@H](O[Si](C)(C)C(C)(C)C)[C@@H]1O[Si](C)(C)C(C)(C)C	H37Ra	-	-	MIC	-	>12.8 µg/mL
CON=C1/C(=C/c2ccco2)CNC/C1=C\c1ccco1	H37Rv	-	agar / visual reading	MIC	-	6.25 µg/mL
O=c1c(O)c(-c2ccc(O)c(O)c2)oc2c(O[C@@H]3O[C@H](CO)[C@@H](O)[C@H](O)[C@H]3O)c(O)cc(O)c12	H37Rv	-	BACTEC	MIC bound	-	>12.5 µg/mL
CC1=C(O)C(C)(CC(C)C)SC1=O	H37Rv	-	-	MIC	-	1000 µM
CC(C)CCOc1ccc(NC(=S)Nc2ccc(OCCC(C)C)cc2)cc1	Isolates ethionamide/thioacetazone-resistant	-	-	MIC	-	0.5–10 µg/mL
CSC(=S)NN=C(C)C	H37Rv	-	BACTEC	MIC bound	-	≤12.5 µg/mL
Fc1ccc(N=C2/C(=C/c3ccco3)CNC/C2=C\c2ccco2)cc1	H37Rv	-	agar / visual reading	MIC	-	3.125 µg/mL
NC(=O)c1cnccn1	H37Rv	-	BACTEC	MIC bound	-	>12.5 µg/mL
NNC(=O)c1ccncc1	H37Rv	-	agar / visual reading	MIC	-	0.1 µg/mL
Cn1c2cc(Cl)c(Cl)cc2nc2cc3c(cc21)c(Cl)c(=O)c1cc2cc(Cl)c(Cl)cc2cc13	H37Rv	-	BACTEC	MIC bound	-	>12.5 µg/mL
CC1(C)[C@H]2CC[C@]1(C)[C@H](OC(=O)/C=C/C=C/c1ccc3c(c1)OCO3)C2	H37Ra	-	-	MIC	-	25 µg/mL
CO[C@H]1/C=C/O[C@@]2(C)Oc3c(C)c(O)c4c(O)c(c(C=O)c(O)c4c3C2=O)NC(=O)/C(C)=C\C=C\[C@H](C)[C@H](O)[C@@H](C)[C@@H](O)[C@@H](C)[C@H](O)[C@@H]1C	H37Rv	-	-	MIC	-	2 µg/mL
O=C1N[C@H]2CCCC[C@@H]2C(=O)N1OS(=O)(=O)c1ccccc1	H37Rv	-	resazurin	inhibition	6.25 µg/mL	2%
CO[C@H]1/C=C/O[C@@]2(C)Oc3c(C)c(O)c4c(O)c(c(/C=N/N5CCN(C)CC5)c(O)c4c3C2=O)NC(=O)/C(C)=C\C=C\[C@H](C)[C@H](O)[C@@H](C)[C@@H](O)[C@@H](C)[C@H](O)[C@@H]1C	H37Rv	-	-	MIC	-	0.05 µg/mL
CCC(CC)CC1(C)SC(=O)C(C)=C1O	H37Rv	-	-	MIC	-	>1000 µM
NNC(=O)c1ccncc1	FJ05120	Multidrug-resistant	resazurin	MIC	-	4 µg/mL
C[C@]1(COc2ccc(N3CCC(Oc4ccc(OC(F)(F)F)cc4)CC3)cc2)Cn2cc([N+](=O)[O-])nc2O1	36 strains (rifampicin-resistant)	-	-	MIC90	-	0.012 µg/mL
CC(C)C1C=C2C(C(=O)C1=O)[C@@]1(C)CCCC(C)(C)[C@@H]1C[C@@H]2O	H37Rv	-	-	EC50	-	<12.5 µg/mL
COc1ccc(C(=O)Nc2ccc(C(=O)N/N=C/c3ccc(Cl)cc3)cc2)cc1	H37Rv	-	-	MIC	-	>6.25 µg/mL
COc1c(N2C[C@@H]3CCCN[C@@H]3C2)c(F)cc2c(=O)c(C(=O)O)cn(C3CC3)c12	H37Rv	-	-	EC50	-	0.116 µg/mL
COc1ccc(C(=O)Nc2ccc(-c3nnc(Nc4ccc(C)cc4)o3)cc2)cc1	H37Rv	-	-	inhibition	6.25 µg/mL	0%
CCCCCCCCO[C@H]1O[C@H](CO[C@H]2O[C@H](CNC(=O)C(C)(C)C)[C@@H](O)[C@@H]2O)[C@@H](O)[C@@H]1O	H37Ra	-	-	MIC	-	>12.8 µg/mL
COc1cc(C2=N/C(=C\c3cccs3)C(=O)O2)cc(OC)c1OC	H37Rv	-	BACTEC	MIC bound	-	>12.5 µg/mL
CC(C)=CCC/C(C)=C/C1(C)SC(=O)C(C)=C1O	H37Rv	-	-	MIC	-	>1000 µM
C[n+]1cccc(C(=O)NO)c1.[I-]	H37Rv	-	BACTEC	MIC	-	≥12.5 µg/mL
CCOc1cc(/C=N/NC(=O)c2ccc(NC(=O)c3ccc(OC)cc3)cc2)ccc1O	H37Rv	-	-	inhibition	6.25 µg/mL	0%
CC(C)=CCN1c2ccccc2NC(=O)CC1C	H37Rv	-	BACTEC	inhibition	12.5 µg/mL	7%
CCCCCCCCO[C@H]1O[C@H](CO[C@H]2O[C@H](CNC(=O)C(C)(C)C)[C@@H](O[Si](C)(C)C(C)(C)C)[C@@H]2O[Si](C)(C)C(C)(C)C)[C@@H](O[Si](C)(C)C(C)(C)C)[C@@H]1O[Si](C)(C)C(C)(C)C	H37Ra	-	-	MIC	-	>12.8 µg/mL

For reference, 9 entries again:

{"SMILES": "C=C(C)CC1(C)SC(=O)C(C)=C1O", "strain": "H37Rv", "measure": "MIC", "result": ">1000 µM"}
{"SMILES": "CC(C)(C)C1CCc2c(sc3nc(SCC(=O)Nc4ccccc4)nc(N)c23)C1", "strain": "H37Rv", "method": "MTT / visual reading", "measure": "MIC", "result": ">200 µg/mL"}
{"SMILES": "Fc1ccc(N=C2/C(=C/c3ccco3)CNC/C2=C\\c2ccco2)cc1", "strain": "H37Rv", "method": "agar / visual reading", "measure": "MIC", "result": "3.125 µg/mL"}
{"SMILES": "C[n+]1cccc(C(=O)NO)c1.[I-]", "strain": "H37Rv", "method": "BACTEC", "measure": "MIC", "result": "≥12.5 µg/mL"}
{"SMILES": "CSC(=S)NN=C(C)C", "strain": "H37Rv", "method": "BACTEC", "measure": "MIC bound", "result": "≤12.5 µg/mL"}
{"SMILES": "CC1=CC(=O)c2c(O)cccc2C1=O", "strain": "H37Rv", "measure": "MIC", "result": "<12.5 µg/mL"}
{"SMILES": "O=C(O)CCCCCCCCCCCCC1C=CCC1", "strain": "H37Rv", "method": "GFP", "measure": "MIC", "result": "9.82 µM"}
{"SMILES": "CCOc1cc(/C=N/NC(=O)c2ccc(NC(=O)c3ccc(OC)cc3)cc2)ccc1O", "strain": "H37Rv", "measure": "inhibition", "tested at": "6.25 µg/mL", "result": "0%"}
{"SMILES": "O=c1c(O)c(-c2ccc(O)c(O)c2)oc2c(O[C@@H]3O[C@H](CO)[C@@H](O)[C@H](O)[C@H]3O)c(O)cc(O)c12", "strain": "H37Rv", "method": "BACTEC", "measure": "MIC bound", "result": ">12.5 µg/mL"}